Sequence variants of PSTVd loop 15 after infection

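Three N. benthamiana plants were inoculated with the whole mutant pool. Samples came from the inoculated region at 5 days, the leaf margin at 10 and upper systemic leaves at 12.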

The pool varies loop 15 of the PSTVd intermediate strain in the pattern GGAAACCGNNNNNNC; wild type is GGAAACCGCUACUAC (upper and lower strand joined, each 5' to 3', the first 7 letters being the upper strand, closing pairs included).

Values are reads per thousand in the sample; higher means more abundant, 0 means not found.
Each site shows the three plants.
"Pool" is the share in the plasmid pool used as inoculum, on the same scale.
The inoculated region was read from the minus strand, the other sites from the plus strand.
IR is the inoculated region, LM the leaf margin, Sys the systemic leaves.

| # | sequence | pool | IR | LM | Sys |
|---|---|---|---|---|---|
| 1 | GGAAACCGUAUUACC | 0.304 | 0.0164 / 0.225 / 0.0762 | 0 / 0 / 0.0601 | 0 / 0 / 0 |
| 2 | GGAAACCGUGGGGUC | 0.272 | 0.0655 / 0.0803 / 0.171 | 0.0162 / 0.0223 / 0 | 0 / 0 / 0 |
| 3 | GGAAACCGCUAUAAC | 0.208 | 0.311 / 0.386 / 0.400 | 0.129 / 0.0891 / 0.280 | 0.0322 / 0.0151 / 0.0684 |
| 4 | GGAAACCGUAAGCUC | 0.224 | 0.393 / 0.209 / 0.381 | 0.0970 / 0.0891 / 0.160 | 0.0322 / 0 / 0 |
| 5 | GGAAACCGCGCAUUC | 0.208 | 0.278 / 0.321 / 0.381 | 0.0808 / 0.0891 / 0.140 | 0.0805 / 0 / 0 |
| 6 | GGAAACCGGGCUAUC | 0.240 | 0.0983 / 0.0803 / 0.0762 | 0 / 0 / 0 | 0 / 0 / 0 |
| 7 | GGAAACCGGUAACGC | 0.336 | 0.115 / 0.112 / 0.152 | 0.0162 / 0 / 0.0401 | 0 / 0 / 0 |
| 8 | GGAAACCGCGUAGGC | 0.240 | 0.0328 / 0.161 / 0.114 | 0 / 0 / 0 | 0 / 0 / 0 |
| 9 | GGAAACCGAGGAGCC | 0.144 | 0.0819 / 0.145 / 0.0571 | 0 / 0 / 0 | 0.0161 / 0 / 0 |
| 10 | GGAAACCGACUGCGC | 0.288 | 0.0655 / 0.0803 / 0.133 | 0 / 0.0223 / 0.0801 | 0.0161 / 0 / 0 |
| 11 | GGAAACCGCCCGUCC | 0.256 | 0.197 / 0.225 / 0.362 | 0.0970 / 0.134 / 0.180 | 0.0322 / 0.0756 / 0.0684 |
| 12 | GGAAACCGGUAGGCC | 0.304 | 0.0819 / 0.0803 / 0.152 | 0 / 0 / 0 | 0 / 0 / 0 |
| 13 | GGAAACCGGUCACCC | 0.192 | 0.0655 / 0.0643 / 0.0952 | 0 / 0.0445 / 0.0200 | 0 / 0 / 0 |
| 14 | GGAAACCGCAUGAAC | 0.208 | 0.131 / 0.0964 / 0.0381 | 0.0162 / 0 / 0 | 0 / 0 / 0 |
| 15 | GGAAACCGCUAAGAC | 0.144 | 0.131 / 0.145 / 0.0952 | 0.0485 / 0.0445 / 0 | 0 / 0.0151 / 0 |
| 16 | GGAAACCGGUCCGAC | 0.176 | 0.0983 / 0.0161 / 0.152 | 0 / 0 / 0 | 0 / 0 / 0 |
| 17 | GGAAACCGGUCAGUC | 0.240 | 0.0491 / 0.0803 / 0.0190 | 0 / 0 / 0.0401 | 0 / 0 / 0 |
| 18 | GGAAACCGCUUGGUC | 0.272 | 0.197 / 0.129 / 0.0571 | 0.0647 / 0 / 0.0200 | 0 / 0 / 0 |
| 19 | GGAAACCGUCCUGCC | 0.224 | 0.0164 / 0.0964 / 0.0762 | 0 / 0 / 0.0401 | 0 / 0 / 0 |
| 20 | GGAAACCGAAAGACC | 0.272 | 0.0655 / 0.0803 / 0.209 | 0 / 0 / 0.0401 | 0.0161 / 0 / 0 |
| 21 | GGAAACCGGAUUCAC | 0.192 | 0.180 / 0.209 / 0.114 | 0 / 0.0223 / 0 | 0 / 0 / 0.0228 |
| 22 | GGAAACCGCUAAUUC | 0.208 | 0.459 / 0.610 / 0.571 | 0.129 / 0.111 / 0.140 | 0.0322 / 0.106 / 0.0684 |
| 23 | GGAAACCGCGUACAC | 0.240 | 0.147 / 0.0482 / 0.0952 | 0 / 0 / 0.0200 | 0 / 0 / 0 |
| 24 | GGAAACCGCGAAUGC | 0.256 | 0.409 / 0.450 / 0.495 | 0.129 / 0.0223 / 0.120 | 0.0322 / 0.0454 / 0.137 |
| 25 | GGAAACCGUUUACCC | 0.368 | 0.0655 / 0.0643 / 0.0952 | 0.0162 / 0 / 0.0601 | 0.0161 / 0 / 0 |
| 26 | GGAAACCGUCAUAGC | 0.288 | 0.0328 / 0.0482 / 0.0952 | 0 / 0 / 0 | 0 / 0 / 0 |
| 27 | GGAAACCGCCAUAUC | 0.144 | 0.213 / 0.209 / 0.419 | 0.146 / 0.0668 / 0.180 | 0.0644 / 0 / 0 |
| 28 | GGAAACCGGACCACC | 0.176 | 0.0983 / 0.112 / 0.0762 | 0.0162 / 0 / 0.0401 | 0 / 0 / 0 |
| 29 | GGAAACCGUCCUCUC | 0.176 | 0.115 / 0.112 / 0.0762 | 0 / 0 / 0.0801 | 0 / 0 / 0 |
| 30 | GGAAACCGGGGACUC | 0.0960 | 0.0983 / 0.0643 / 0.0952 | 0.0323 / 0 / 0 | 0 / 0 / 0 |
| 31 | GGAAACCGAACUCUC | 0.240 | 0.147 / 0.257 / 0.171 | 0 / 0 / 0.0200 | 0 / 0.0151 / 0 |
| 32 | GGAAACCGGUCGUCC | 0.240 | 0.393 / 0.209 / 0.286 | 0.226 / 0.134 / 0.180 | 0.0322 / 0 / 0 |
| 33 | GGAAACCGUCGAAUC | 0.288 | 0.0819 / 0.0964 / 0.0762 | 0.0162 / 0 / 0.0200 | 0 / 0 / 0 |
| 34 | GGAAACCGUAUCGCC | 0.176 | 0.0491 / 0.0803 / 0.152 | 0.0162 / 0 / 0.0401 | 0 / 0 / 0 |
| 35 | GGAAACCGAUAAGCC | 0.192 | 0.0819 / 0.0643 / 0.114 | 0 / 0.0223 / 0.0200 | 0 / 0 / 0 |
| 36 | GGAAACCGGGGUGCC | 0.176 | 0.0819 / 0.161 / 0.133 | 0 / 0 / 0 | 0 / 0 / 0 |
| 37 | GGAAACCGCCAUAAC | 0.224 | 0.393 / 0.353 / 0.438 | 0.0808 / 0.0445 / 0.200 | 0.0322 / 0.0151 / 0.0912 |
| 38 | GGAAACCGCCCCCCC | 0.224 | 0.0983 / 0.0482 / 0.0762 | 0.0162 / 0 / 0.0200 | 0 / 0 / 0 |
| 39 | GGAAACCGGGGCUAC | 0.160 | 0.0491 / 0.112 / 0.0762 | 0.0162 / 0 / 0.0601 | 0 / 0 / 0 |
| 40 | GGAAACCGUUACAAC | 0.144 | 0.246 / 0.225 / 0.343 | 0.129 / 0.0891 / 0.200 | 0.0483 / 0.0605 / 0.114 |
| 41 | GGAAACCGCGCAUAC | 0.288 | 0.295 / 0.321 / 0.381 | 0.129 / 0.0445 / 0.120 | 0.0644 / 0.106 / 0.0456 |
| 42 | GGAAACCGUAUUCUC | 0.208 | 0.0819 / 0.129 / 0.114 | 0.0162 / 0.0223 / 0 | 0 / 0 / 0 |
| 43 | GGAAACCGUAAUUCC | 0.0800 | 0.295 / 0.337 / 0.400 | 0.0808 / 0.0445 / 0.140 | 0.0644 / 0.136 / 0.0456 |
| 44 | GGAAACCGCGGCACC | 0.224 | 0.246 / 0.193 / 0.190 | 0.0323 / 0 / 0.0200 | 0.0161 / 0 / 0 |
| 45 | GGAAACCGUCGGUGC | 0.288 | 0.328 / 0.418 / 0.267 | 0.0323 / 0.134 / 0.160 | 0.0322 / 0 / 0 |
| 46 | GGAAACCGGCUGCUC | 0.176 | 0.0655 / 0.0803 / 0.0571 | 0 / 0 / 0.0200 | 0 / 0 / 0 |
| 47 | GGAAACCGGAGUUGC | 0.288 | 0.0983 / 0.112 / 0.0381 | 0 / 0 / 0.0200 | 0 / 0 / 0 |
| 48 | GGAAACCGUCAGCCC | 0.256 | 0.0655 / 0.0482 / 0.171 | 0 / 0 / 0.0401 | 0 / 0 / 0 |
| 49 | GGAAACCGUUUGCUC | 0.240 | 0.0819 / 0.0964 / 0.133 | 0 / 0.0445 / 0.0200 | 0 / 0 / 0 |
| 50 | GGAAACCGGUCAAGC | 0.256 | 0.0819 / 0.0964 / 0.0571 | 0 / 0.0223 / 0 | 0.0161 / 0 / 0 |
| 51 | GGAAACCGUAUGUAC | 0.240 | 0.344 / 0.386 / 0.286 | 0.129 / 0.134 / 0.160 | 0 / 0.0605 / 0.114 |
| 52 | GGAAACCGGUAGAUC | 0.0640 | 0.278 / 0.353 / 0.190 | 0.146 / 0.0445 / 0.120 | 0.0161 / 0.0454 / 0.0912 |
| 53 | GGAAACCGCGUUCGC | 0.144 | 0.0819 / 0.112 / 0.133 | 0.0323 / 0 / 0.0200 | 0 / 0 / 0 |

The authors trace changes outside the varied positions to PCR and sequencing errors or to mutation in the plant; presence does not show that a variant is infectious alone.
With 43,870-66,106 reads a sample, very low values are single reads.
For reference, wild type rose from 33.9 per thousand in the pool to 202, 200, 159 (inoculated region), 724, 746, 710 (leaf margin) and 856, 883, 880 (systemic leaves).

Source: Wu et al. 2024 (doi:10.1371/journal.ppat.1012142), supplementary data.